A mixed list of measured activities; the numbers were collected in NIAID ChemDB.

All rows: tests on isolated targets

Fold resistance has wild type as its base. An empty or dashed field is not shown. ICn: concentration for n% inhibition. Inhibition is in % at the dose shown (toxicity tests: loss of growth or viability). Lines come from different laboratories, so protocols vary.

| compound | measure | target | dose | mutations | strain | read by | agent | value |
|---|---|---|---|---|---|---|---|---|
| O=C(O)C(F)(F)P(=O)(O)O | inhibition | DNA polymerase | 100 µM | - | - | - | Herpes simplex virus 1 | 62% |
| CCCc1c[nH]c(=S)[nH]c1=O | Ki | Uracil phosphoribosyltransferase | - | - | RH | - | Toxoplasma gondii | 2100 µM |
| CC(C)c1cc(C(C)C)c(C(=O)Nc2nnc(NCc3ccc(S(N)(=O)=O)cc3)s2)c(C(C)C)c1 | IC50 | Polymerase | - | - | - | - | Human cytomegalovirus | <25 µM |
| Cc1cn([C@@H]2O[C@H](CO[Si](C)(C)C(C)(C)C)C3(OS(=O)(=O)C=C3N)[C@H]2O[Si](C)(C)C(C)(C)C)c(=O)n(C)c1=O | IC50 | Reverse transcriptase | - | RT-P140A | - | nucleotide incorporation / radiometric | HIV | 0.6 µM |
| CCN(C(=O)OCc1ccccc1)C1CCN(CC[C@](C)(CN(C)S(=O)(=O)c2ccccc2)c2ccccc2)CC1 | IC50 | CCR5 | - | CCR5-D276A | - | radiometric | - | 0.023 µM |
| O=C(Nc1nnc(NCCCCc2ccccc2)s1)c1ccc(C(F)(F)F)cc1 | IC50 | Polymerase | - | - | - | - | Human cytomegalovirus | <25 µM |
| O=c1ccn(C2CCCCC2)c(=O)[nH]1 | inhibition | Uracil phosphoribosyltransferase | 2000 µM | - | RH | - | Toxoplasma gondii | <10% |
| O=C(Nc1nnc(NC2CCCc3ccccc32)s1)c1cc(F)cc(F)c1 | IC50 | Polymerase | - | - | - | - | Human cytomegalovirus | >25 µM |
| O=C(c1ccccc1)N1C[C@H](CN2CCC(c3ccccc3)CC2)[C@@H](c2ccccc2)C1 | fold resistance | CCR5 | - | CCR5-E283A | - | radiometric | - | >1000 |
| O=C(O)c1c(O)cncc1O | IC50 | Uracil phosphoribosyltransferase | - | - | RH | - | Toxoplasma gondii | >2000 µM |
| CC(C)=CCOc1cc(NC(=S)c2ccoc2C)ccc1Cl | IC50 | Reverse transcriptase | - | RT-N137A | - | nucleotide incorporation / radiometric | HIV | 0.03 µM |
| CCOc1ccc2ccccc2c1C(=O)Nc1nnc(NCc2cccnc2)s1 | IC50 | Polymerase | - | - | - | - | Human cytomegalovirus | <25 µM |
| O=C(O)C(Br)P(=O)(O)O | inhibition | DNA polymerase | 100 µM | - | - | - | Epstein-Barr virus | 85% |
| Cc1cn([C@@H]2O[C@H](CO[Si](C)(C)C(C)(C)C)[C@@]3(OS(=O)(=O)C=C3N)[C@H]2O[Si](C)(C)C(C)(C)C)c(=O)[nH]c1=O | IC50 | Reverse transcriptase | - | RT-N137E | - | nucleotide incorporation / radiometric | HIV | 2 µM |
| O=c1cc(Cc2ccccc2)[nH]c(=S)[nH]1 | inhibition | Uracil phosphoribosyltransferase | 2000 µM | - | RH | - | Toxoplasma gondii | <5% |
| N#Cc1ccc(C(=O)Nc2nnc(NCc3ccc(Cl)c(Cl)c3)s2)cc1 | IC50 | Polymerase | - | - | - | - | Human cytomegalovirus | <25 µM |
| O=C(O)C(Cl)(Br)P(=O)(O)O | IC50 | DNA polymerase | - | - | - | - | Epstein-Barr virus | >100 µM |
| O=C(Nc1nnc(NCc2ccncc2)s1)c1ccc(Cl)c(Cl)c1 | IC50 | Polymerase | - | - | - | - | Human cytomegalovirus | >25 µM |
| Nc1ccnc(=O)[nH]1 | IC50 | Uracil phosphoribosyltransferase | - | - | RH | - | Toxoplasma gondii | >2000 µM |
| O=C(O)C(Cl)P(=O)(O)O | IC50 | DNA polymerase | - | - | - | - | Epstein-Barr virus | 14.5 µM |
| CO[P@](=O)(c1cc(C)cc(/C=C/C#N)c1)c1c(C(N)=O)[nH]c2ccc(Cl)cc12 | IC50 | Reverse transcriptase | - | E138K | - | - | HIV | 2.99 µM |
| CC(Cl)(C(=O)O)P(=O)(O)O | inhibition | DNA polymerase | 100 µM | - | - | - | Herpes simplex virus 1 | 0% |
| C=CCN(C(=O)OCc1ccc([N+](=O)[O-])cc1)C1CCN(CC[C@](C)(CN(C)S(=O)(=O)c2ccccc2)c2ccccc2)CC1 | IC50 | CCR5 | - | CCR5-W86A | - | radiometric | - | 0.13 µM |
| O=C(Nc1nnc(NCCN2CCCC2)s1)c1c(Cl)cccc1Cl | IC50 | Polymerase | - | - | - | - | Human cytomegalovirus | >25 µM |
| O=C(O)Cc1cc(=O)[nH]c(=O)[nH]1 | inhibition | Uracil phosphoribosyltransferase | 2000 µM | - | RH | - | Toxoplasma gondii | <5% |

Repeating the final 2 entries:

| compound | measure | target | dose | mutations | strain | read by | agent | value |
|---|---|---|---|---|---|---|---|---|
| O=C(Nc1nnc(NCCN2CCCC2)s1)c1c(Cl)cccc1Cl | IC50 | Polymerase | - | - | - | - | Human cytomegalovirus | >25 µM |
| O=C(O)Cc1cc(=O)[nH]c(=O)[nH]1 | inhibition | Uracil phosphoribosyltransferase | 2000 µM | - | RH | - | Toxoplasma gondii | <5% |